Measurements reported in PubChem BioAssay AID1259414 (Drosophila RNAi Screening Center, 2018)
In all, the deposit lists about 24,000 reagents; this is an unselected part of those that have a named target and a result. In the full data, about 1,210 (5%) are marked active. 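Inactive calls also include excluded dsRNAs with several or no targets, genes unexpressed in JW18, and well A1, regardless of score.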 A number with no mark means an inactive call. Names joined by + are all predicted targets of the reagent.

Screen: 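Genome-wide screen for host control of endosymbiont load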 (primary screen)
Cells: Drosophila JW18 cells infected with Wolbachia
Knock-down reagent: long dsRNA against Drosophila genes, 0.25 µg dsRNA per well of a 384-well plate
Duration: 5 days
Challenge: cells persistently infected with Wolbachia before knock-down; no added drug
Measured: 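Automated imaging of bacterial rRNA staining divided by host cell count, reported as plate-normalised robust z-score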
Scale: Wolbachia per cell robust z: higher = more Wolbachia per host cell than the plate typical
Hit rule: 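Hit when robust z is 1.5 or more, or -1.5 or less, in at least two of three replicates; excludes dsRNAs with several or no targets, genes not expressed in JW18 and well A1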

| gene knocked down | dsRNA | Wolbachia per cell robust z, rep 1 | Wolbachia per cell robust z, rep 2 | Wolbachia per cell robust z, rep 3 |
| --- | --- | --- | --- | --- |
| Mps1 (Monopolar spindle 1) | DRSC16273 | -0.0745 | 0.865 | 1.59 |
| CG43178 + CG43171 + CG43201 | DRSC40541 | -1.06 | 0.0644 | 0.296 |
| Drep1 (DNA fragmentation factor-related protein 1) | DRSC07527 | -1.03 | 0.698 | -1.97 |
| CG17906 | DRSC41264 | 0.651 | -1.55 | -0.588 |
| Fim (Fimbrin) | DRSC20243 | 0.317 | 0.33 | 0.774 |
| CG34245 | DRSC40535 | -0.904 | 0.0659 | 0.213 |
| CG34129 | DRSC15960 | -2.78 | 0.536 | 0.3 |
| CG43897 | DRSC10173 | 0.712 | -0.136 | -0.102 |
| CG43897 | DRSC10967 | 1.42 | 0.144 | 0.447 |
| CG43897 | DRSC25184 | 1.13 | 0.861 | 0.412 |
| CG43897 | DRSC25785 | -4.81 | -0.799 | -0.722 |
| CDase (Ceramidase) | DRSC14932 | -0.906 | -0.77 | -0.549 |
| ND-MWFE (NADH dehydrogenase (ubiquinone) MWFE subunit) | DRSC06364 | -0.902 (active) | -5.06 | -2.48 |
| CG4360 | DRSC15566 | -0.00742 | -1.16 | 0.186 |
| CG4360 | DRSC30049 | -0.286 | -1.75 | -1.11 |
| clos (closca) | DRSC06240 | 1.06 | 0.0953 | -1.47 |
| clos (closca) | DRSC06241 | 0.0362 | -0.554 | 0.551 |
| clos (closca) | DRSC06778 | 1.62 | -0.221 | 1.29 |
| clos (closca) | DRSC21857 | -0.0679 | -0.634 | -1.09 |
| clos (closca) | DRSC22942 | 0.532 | -1.37 | -1.28 |
| Cog3 (Component of oligomeric golgi complex 3) | DRSC00585 | -1.51 | 0.491 | -0.643 |
| Elo68beta (Elongase 68beta) | DRSC09860 | 1.16 | 1.14 | 0.396 |
| Tfb4 (Transcription factor B4) | DRSC00675 | -0.578 | 1.69 | 0.167 |
| Tfb4 (Transcription factor B4) | DRSC26946 | -0.431 | -1.01 | 0.112 |
| Spf45 | DRSC03826 | -0.346 | -0.927 | 0.11 |
| Pfdn1 (Prefoldin 1) | DRSC02325 | -0.0321 | 0.705 | 0.309 |
| Pfdn1 (Prefoldin 1) | DRSC26624 | 1.06 | 1.46 | 2.32 |
| Spt20 | DRSC22993 | -2.31 (active) | 1.62 | -3.38 |
| Spt20 | DRSC25791 | 0.637 | 1.2 | 2.96 |
| CG42393 | DRSC40578 | 0.373 | -0.912 | -0.373 |
| CG17375 | DRSC02614 | -0.849 | -0.904 | -0.721 |
| CG17375 | DRSC29517 | 0.0891 | -5.64 | 1.3 |
| Akap200 (A kinase anchor protein 200) | DRSC01864 | 1.06 (active) | -4.51 | -1.57 |
| Akap200 (A kinase anchor protein 200) | DRSC40612 | 0.0811 | -2.11 | -1.26 |
| Akap200 (A kinase anchor protein 200) | DRSC40868 | -0.698 | 1.43 | 0.535 |
| CG33985 | DRSC37800 | 1.52 | 1.49 | 3.68 |
| Zw10 (Zeste-white 10) | DRSC18793 | -0.416 | 0.227 | -0.245 |
| Zw10 (Zeste-white 10) | DRSC25620 | -0.875 | 0.0541 | -1.06 |
| Nrk (Neurospecific receptor kinase) | DRSC07480 | -1.03 | -0.716 | 0.0231 |

The list goes on (4 carried over from the part before).
| gene knocked down | dsRNA | Wolbachia per cell robust z, rep 1 | Wolbachia per cell robust z, rep 2 | Wolbachia per cell robust z, rep 3 |
| --- | --- | --- | --- | --- |
| CG33985 | DRSC37800 | 1.52 | 1.49 | 3.68 |
| Zw10 (Zeste-white 10) | DRSC18793 | -0.416 | 0.227 | -0.245 |
| Zw10 (Zeste-white 10) | DRSC25620 | -0.875 | 0.0541 | -1.06 |
| Nrk (Neurospecific receptor kinase) | DRSC07480 | -1.03 | -0.716 | 0.0231 |
| CG3119 | DRSC38929 | -1.25 | 1.56 | -1.9 |
| dbr (debra) | DRSC00274 | -2 | -3.16 | -7.25 |
| PVRAP (PVR adaptor protein) | DRSC10577 | -0.848 | -0.21 | -0.369 |
| Fnta (Farnesyl transferase alpha subunit) | DRSC00557 | 0.989 | 0.112 | 0.645 |
| Fnta (Farnesyl transferase alpha subunit) | DRSC28877 | -1.16 | -0.435 | -2.44 |
| Atg2 (Autophagy-related 2) | DRSC08273 | -0.175 | -0.808 | -0.203 |
| l(3)mbt (lethal (3) malignant brain tumor) | DRSC16983 | -0.272 | 1.36 | 0.759 |
| l(3)mbt (lethal (3) malignant brain tumor) | DRSC26103 | -1.97 | -0.205 | 0.806 |
| CG2006 + Spase12 | DRSC14316 | -4.7 | -1.16 | -3.32 |
| Nf-YA (Nuclear factor Y-box A) | DRSC23126 | -2.14 | 0.638 | 0.284 |
| AMPKalpha (AMP-activated protein kinase alpha subunit) | DRSC18714 | -0.0554 | 0.0203 | 0.372 |
| AMPKalpha (AMP-activated protein kinase alpha subunit) | DRSC28055 | -1.01 | -1.01 | 0.792 |
| CG31759 | DRSC01230 | -0.173 | -1.82 | -0.748 |
| CG42637 + Gyc76C | DRSC11180 | 1.07 | 0.237 | 0.322 |
| beg (bad egg) | DRSC10923 | 0.0589 | -0.00827 | -1.58 |
| alphaSnap (alpha Soluble NSF attachment protein) | DRSC11285 | 0.934 | 1.6 | 0.727 |
| alphaSnap (alpha Soluble NSF attachment protein) | DRSC29788 | 5.19 | 4.05 | 8.89 |
| Sln (Silnoon) | DRSC07133 | 0.887 | 1.07 | 0.927 |
| Sln (Silnoon) | DRSC24171 | -0.46 | -0.449 | -0.633 |
| l(2)37Cb (lethal (2) 37Cb) | DRSC02095 | -4.94 (active) | -1.43 | -8 |
| l(2)37Cb (lethal (2) 37Cb) | DRSC24383 | -1.64 (active) | -8.53 | -13 |
| AIMP3 (aaRS-interacting multifunctional protein 3) | DRSC04500 | 1.32 | 0.488 | 0.474 |
| AIMP3 (aaRS-interacting multifunctional protein 3) | DRSC26724 | 0.542 | -1.65 | 0.488 |
| sicily (severe impairment of CI with lengthened youth) | DRSC19704 | -1.82 | -0.943 | 0.191 |
| Prip | DRSC07044 | 0.152 | -0.416 | -1.43 |
| Prip | DRSC26459 | -1.6 | 0.176 | 0.294 |
| Prp5 (pre-mRNA processing factor 5) | DRSC19975 | -2.3 | 1 | 0.102 |
| Prp5 (pre-mRNA processing factor 5) | DRSC27434 | 0.84 | 0.433 | -5.22 |
| CG6163 | DRSC10595 | 1.28 | -0.254 | 1.42 |
| CG6163 | DRSC26527 | -0.146 | -0.446 | 1.24 |
